## Sequence variants of PSTVd loop 15 after infection

The pool varies loop 15 of the PSTVd intermediate strain in the pattern GGAAACCGNNNNNNC; wild type is GGAAACCGCUACUAC (upper and lower strand joined, each 5' to 3', the first 7 letters being the upper strand, closing pairs included).

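Three N. benthamiana plants were inoculated with the whole mutant pool. Progeny were sequenced from the inoculated region (day 5), the margin of the inoculated leaf (day 10) and systemic leaves (day 12).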

Values are reads per thousand in the sample; higher means more abundant, 0 means not found.
Each site shows the three plants.
"Pool" is the share in the plasmid pool used as inoculum, on the same scale.
The inoculated region was read from the minus strand, the other sites from the plus strand.
Sequences that differ at fixed positions probably stem from PCR or sequencing errors, and defective variants can be carried along by functional ones.

sequence	pool	inoculated region	leaf margin	systemic leaves
GGAAACCGGGAGCCC	0.240	0.147 0.112 0.114	0 0.0223 0	0.0161 0 0
GGAAACCGGGAGCGC	0.224	0.131 0.0803 0.0381	0.0162 0 0.0401	0 0 0
GGAAACCGGGAGCUC	0.240	0.0983 0.0803 0.0571	0.0162 0 0	0 0 0
GGAAACCGGGAGGAC	0.224	0.328 0.273 0.381	0.113 0.178 0.0801	0.0322 0 0.0228
GGAAACCGGGAGGCC	0.288	0.115 0.112 0.133	0.0323 0 0.0401	0 0 0
GGAAACCGGGAGGGC	0.192	0.0983 0.0321 0.0952	0.0323 0 0	0 0 0
GGAAACCGGGAGGUC	0.240	0.0819 0.145 0.0571	0 0.0223 0	0 0 0
GGAAACCGGGAGUAC	0.320	0.442 0.434 0.400	0.0970 0.134 0.100	0.0161 0.0454 0.0456
GGAAACCGGGAGUCC	0.336	0.393 0.241 0.190	0.0485 0.0891 0.0401	0.0161 0.0151 0.0684
GGAAACCGGGAGUGC	0.224	0.262 0.353 0.190	0.162 0.0223 0.0601	0.0161 0.0454 0.0456
GGAAACCGGGAGUUC	0.224	0.377 0.369 0.438	0.0808 0.0891 0.0801	0.0644 0.0454 0.137
GGAAACCGGGAUAAC	0.192	0.0491 0.112 0.0762	0.0162 0.0223 0.0401	0 0 0
GGAAACCGGGAUACC	0.208	0.0819 0.177 0.248	0 0 0.0200	0.0322 0 0
GGAAACCGGGAUAGC	0.160	0.0655 0.112 0.152	0 0 0.0200	0.0161 0 0
GGAAACCGGGAUAUC	0.144	0.0983 0.0803 0.0952	0.0162 0.0223 0.0200	0 0 0
GGAAACCGGGAUCAC	0.272	0.131 0.112 0.0571	0 0.0223 0.0200	0 0 0
GGAAACCGGGAUCCC	0.240	0.0983 0.0482 0.0571	0.0162 0 0.0200	0 0 0
GGAAACCGGGAUCGC	0.224	0.131 0.0643 0.0952	0 0 0.0200	0 0 0
GGAAACCGGGAUCUC	0.192	0.0328 0.145 0.0381	0 0.0445 0	0.0161 0 0
GGAAACCGGGAUGAC	0.304	0.131 0.0803 0.0952	0 0 0	0 0 0
GGAAACCGGGAUGCC	0.208	0.131 0.112 0.0762	0.0162 0 0.0401	0 0 0
GGAAACCGGGAUGGC	0.208	0.0983 0.0482 0.171	0.0323 0.0223 0	0.0322 0 0
GGAAACCGGGAUGUC	0.336	0.0655 0.0482 0.114	0.0323 0 0.0200	0.0161 0 0
GGAAACCGGGAUUAC	0.256	0.377 0.289 0.343	0.129 0.0223 0.180	0.0644 0.106 0.0684
GGAAACCGGGAUUCC	0.256	0.0983 0.0643 0.0571	0 0 0	0 0 0
GGAAACCGGGAUUGC	0.256	0.0819 0.0803 0.114	0 0 0	0 0 0
GGAAACCGGGAUUUC	0.176	0.442 0.337 0.343	0.0808 0.0668 0.160	0.0483 0 0
GGAAACCGGGCAAAC	0.304	0.115 0.0643 0.0762	0 0 0.0200	0 0 0
GGAAACCGGGCAACC	0.256	0.0983 0.0803 0.0571	0.0162 0 0	0 0 0
GGAAACCGGGCAAGC	0.256	0.0983 0.0964 0.0381	0 0 0	0 0 0
GGAAACCGGGCAAUC	0.144	0.131 0.0482 0.114	0.0323 0 0.0401	0 0 0
GGAAACCGGGCACAC	0.240	0.131 0.0643 0.0381	0 0.0223 0	0 0 0
GGAAACCGGGCACCC	0.368	0.0655 0.0964 0.133	0 0 0	0 0 0
GGAAACCGGGCACGC	0.192	0.0491 0.0964 0.0952	0 0 0.0200	0 0 0
GGAAACCGGGCACUC	0.208	0.0491 0.0964 0.0762	0 0 0.0401	0 0 0
GGAAACCGGGCAGAC	0.272	0.131 0.177 0.114	0.0162 0 0.0200	0 0 0
GGAAACCGGGCAGCC	0.288	0.131 0.0964 0.114	0.0162 0 0	0 0 0
GGAAACCGGGCAGGC	0.176	0.197 0.0321 0.0762	0.0162 0 0	0 0.0151 0
GGAAACCGGGCAGUC	0.224	0.0819 0.0964 0.0952	0.0162 0 0	0 0 0
GGAAACCGGGCAUAC	0.256	0.131 0.145 0.190	0.0162 0 0	0.0161 0 0
GGAAACCGGGCAUCC	0.240	0.147 0.0964 0.114	0.0162 0 0	0 0 0
GGAAACCGGGCAUGC	0.208	0.0983 0.0643 0.133	0 0 0	0.0161 0 0
GGAAACCGGGCAUUC	0.192	0.0491 0.0964 0.0762	0.0162 0 0	0 0 0
GGAAACCGGGCCAAC	0.224	0.0655 0.0803 0.0381	0 0 0	0 0 0
GGAAACCGGGCCACC	0.224	0.0491 0.0803 0.133	0 0 0.0200	0 0 0
GGAAACCGGGCCAGC	0.176	0.0983 0.112 0.0571	0 0 0	0 0 0
GGAAACCGGGCCAUC	0.192	0.0819 0.0803 0.0571	0 0.0445 0	0 0 0
GGAAACCGGGCCCAC	0.208	0.147 0.0964 0.114	0 0 0	0 0 0
GGAAACCGGGCCCCC	0.128	0.0655 0.0964 0.0952	0 0 0	0 0 0
GGAAACCGGGCCCGC	0.304	0.115 0.0482 0.152	0.0162 0.0223 0	0 0 0
GGAAACCGGGCCCUC	0.208	0.0983 0.0803 0.0952	0 0.0223 0.0200	0 0 0
GGAAACCGGGCCGAC	0.160	0.0491 0.161 0.0571	0 0 0.0200	0 0 0.0228
GGAAACCGGGCCGCC	0.224	0.0819 0.0964 0.133	0 0 0	0 0 0

Extract of 5 entries:

- GGAAACCGGGCACUC (pool 0.208) -> inoculated region 0.0491 0.0964 0.0762; leaf margin 0 0 0.0401; systemic leaves 0 0 0
- GGAAACCGGGCAAAC (pool 0.304) -> inoculated region 0.115 0.0643 0.0762; leaf margin 0 0 0.0200; systemic leaves 0 0 0
- GGAAACCGGGCAGCC (pool 0.288) -> inoculated region 0.131 0.0964 0.114; leaf margin 0.0162 0 0; systemic leaves 0 0 0
- GGAAACCGGGCCAUC (pool 0.192) -> inoculated region 0.0819 0.0803 0.0571; leaf margin 0 0.0445 0; systemic leaves 0 0 0
- GGAAACCGGGCCGAC (pool 0.160) -> inoculated region 0.0491 0.161 0.0571; leaf margin 0 0 0.0200; systemic leaves 0 0 0.0228

For reference, wild type rose from 33.9 per thousand in the pool to 202, 200, 159 (inoculated region), 724, 746, 710 (leaf margin) and 856, 883, 880 (systemic leaves).
Samples held 43,870 to 66,106 reads, so the smallest values rest on one or two reads.

Source: Wu et al. 2024 (doi:10.1371/journal.ppat.1012142), supplementary data.